PubChem BioAssay AID1224833 – University of Georgia | 2016
The deposit covers about 12,000 reagents; shown is a part drawn at random. Of all reagents, about 5,600 (46%) are marked active. 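Active calls cover z-scores past 1 in both directions, so they include lowered as well as raised rotavirus replication.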 A number with no mark means an inactive call. Reagent sequences are not shown.

Assay: 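Human genes whose knock-down alters rotavirus replication in monkey cells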 (primary screen)
Cell system: monkey MA104 kidney cells
Reagent: siRNA pool against human genes, 50 nM
Timing: 48 h knock-down before infection; read 24 h after infection
Conditions: infection with rotavirus strain RV3 two days after transfection; infectious dose for this stage not given
Detection: 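z-score of rotavirus antigen signal per well, from a fluorescent immunoassay, relative to non-targeting control wells on the same plate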
Direction: z-score vs non-targeting control: higher = more rotavirus replication than with non-targeting control
Hit rule: In these data the active calls have z-score vs non-targeting control at about -1 or lower, or at about 1 or higher
Meaning of the calls: active = z-score beyond 1 either way; inactive = z-score within 1 of zero

target,z-score vs non-targeting control
IPO4 (importin 4),-0.38
TOMM6 (translocase of outer mitochondrial membrane 6),-4.16 (active)
SPATA16 (spermatogenesis associated 16),-0.457
GBA2 (glucosylceramidase beta 2),0.878
MC3R (melanocortin 3 receptor),-1.15 (active)
KIF6 (kinesin family member 6),-0.854
"PWP1 (PWP1 homolog, endonuclein)",-0.104
KBTBD6 (kelch repeat and BTB domain containing 6),-1.32 (active)
TTC19 (tetratricopeptide repeat domain 19),-1.26 (active)
"GAPT (GRB2 binding adaptor protein, transmembrane)",2.19 (active)
NAP1L1 (nucleosome assembly protein 1 like 1),0.0775
ZBTB5 (zinc finger and BTB domain containing 5),-0.693
SH3TC1 (SH3 domain and tetratricopeptide repeats 1),-0.434
CLEC6A (C-type lectin domain containing 6A),0.192
AGAP7P,-1.03 (active)
LYPLAL1 (lysophospholipase like 1),-1.58 (active)
SIGLEC9 (sialic acid binding Ig like lectin 9),0.641
TBX20 (T-box transcription factor 20),-1.7 (active)
CFHR1 (complement factor H related 1),-0.177
ANKRD44 (ankyrin repeat domain 44),1.27 (active)
CRYBG3 (crystallin beta-gamma domain containing 3),-0.238
KLHL9 (kelch like family member 9),1 (active)
PRPF31 (pre-mRNA processing factor 31),-1.39 (active)
CXCR6 (C-X-C motif chemokine receptor 6),-0.597
SLC4A9,-1.7 (active)
SMTN (smoothelin),-0.393
KIF2B (kinesin family member 2B),-1.25 (active)
SLC25A25,1.08 (active)
IL4I1 (interleukin 4 induced 1),1.07 (active)
MEGF10 (multiple EGF like domains 10),-2.04 (active)
THG1L (tRNA-histidine guanylyltransferase 1 like),0.964
VXN (vexin),-0.707
OLA1 (Obg like ATPase 1),-0.335
CNPY4 (canopy FGF signaling regulator 4),0.535
OR6C3 (olfactory receptor family 6 subfamily C member 3),0.266
APBB1IP,1.19 (active)
LRTOMT,0.209
DTWD2 (DTW motif tRNA-uridine aminocarboxypropyltransferase 2),0.968
OR4K1 (olfactory receptor family 4 subfamily K member 1),-0.35
ATL1 (atlastin GTPase 1),-1.78 (active)
HMGN5 (high mobility group nucleosome binding domain 5),-0.582
CCND3 (cyclin D3),1.21 (active)
MZF1 (myeloid zinc finger 1),2.05 (active)
OR2T11 (olfactory receptor family 2 subfamily T member 11),-0.758
HSBP1 (heat shock factor binding protein 1),0.691
FKRP (fukutin related protein),0.546
AP4B1 (adaptor related protein complex 4 subunit beta 1),-2.93 (active)
TBC1D25 (TBC1 domain family member 25),-0.204
"METAP1D (methionyl aminopeptidase type 1D, mitochondrial)",1.14 (active)
OR11H6 (olfactory receptor family 11 subfamily H member 6),-1.4 (active)
NMD3 (NMD3 ribosome export adaptor),0.405
POLR1H (RNA polymerase I subunit H),0.765
RASL11B (RAS like family 11 member B),-0.724
THOC2 (THO complex subunit 2),-3.7 (active)
"RBSN (rabenosyn, RAB effector)",-0.543
CDV3 (CDV3 homolog),1.9 (active)
"CAPG (capping actin protein, gelsolin like)",-1.66 (active)
OTOP2 (otopetrin 2),1.67 (active)
UTY,-0.0204
DDX1 (DEAD-box helicase 1),-0.856
TNMD (tenomodulin),0.328
PERP (p53 apoptosis effector related to PMP22),0.694
ME1 (malic enzyme 1),1.47 (active)
RPL41 (ribosomal protein L41),1.63 (active)
AFG3L2 (AFG3 like matrix AAA peptidase subunit 2),2.1 (active)
TUFT1 (tuftelin 1),0.709
POU5F1 (POU class 5 homeobox 1),0.0496

6 entries already listed, arranged by “z-score vs non-targeting control”, descending:
target,z-score vs non-targeting control
ANKRD44 (ankyrin repeat domain 44),1.27 (active)
KLHL9 (kelch like family member 9),1 (active)
CRYBG3 (crystallin beta-gamma domain containing 3),-0.238
CXCR6 (C-X-C motif chemokine receptor 6),-0.597
PRPF31 (pre-mRNA processing factor 31),-1.39 (active)
SLC4A9,-1.7 (active)

More results:
target,z-score vs non-targeting control
TFAP2E (transcription factor AP-2 epsilon),-0.349
AGXT (alanine--glyoxylate aminotransferase),1.55 (active)
KAT8 (lysine acetyltransferase 8),-1.95 (active)
C6orf15 (chromosome 6 open reading frame 15),-0.466
VPS35 (VPS35 retromer complex component),-1.08 (active)
SNX7 (sorting nexin 7),1.11 (active)
GRAP2 (GRB2 related adaptor protein 2),0.164
S100A11 (S100 calcium binding protein A11),-0.0359
CENATAC (centrosomal AT-AC splicing factor),-0.631
SPINK13 (serine peptidase inhibitor Kazal type 13),-2.53 (active)
TOMM40L (translocase of outer mitochondrial membrane 40 like),-0.525
"ADH7 (alcohol dehydrogenase 7 (class IV), mu or sigma polypeptide)",-0.561
ABHD12B (abhydrolase domain containing 12B),-0.854
ZBBX (zinc finger B-box domain containing),-0.472
ATP6V0D1 (ATPase H+ transporting V0 subunit d1),-2.64 (active)
TNFRSF8 (TNF receptor superfamily member 8),-0.641
RBP2 (retinol binding protein 2),-1.14 (active)
RIMS3 (regulating synaptic membrane exocytosis 3),-0.537
PODXL (podocalyxin like),0.533
BAIAP2L1 (BAR/IMD domain containing adaptor protein 2 like 1),-0.979
TMEM125 (transmembrane protein 125),0.517
RBM44 (RNA binding motif protein 44),0.841
TMEM98 (transmembrane protein 98),-0.934
NMRK2 (nicotinamide riboside kinase 2),-0.64
RGP1 (RGP1 partner of RAB6A GEF complex),2.22 (active)
SAMD9L (sterile alpha motif domain containing 9 like),-0.189
NBPF14 (NBPF member 14),-1.1 (active)
IL32 (interleukin 32),-1.53 (active)
TPSG1 (tryptase gamma 1),1.06 (active)
FDFT1 (farnesyl-diphosphate farnesyltransferase 1),0.709
SLC1A2,0.789
OR9I1 (olfactory receptor family 9 subfamily I member 1),-0.282
MCHR2 (melanin concentrating hormone receptor 2),-0.579
IFNA17 (interferon alpha 17),1.87 (active)
OR6K2 (olfactory receptor family 6 subfamily K member 2),-1.67 (active)
ECSCR,-0.354
BBS7 (Bardet-Biedl syndrome 7),1.27 (active)
NUDT10 (nudix hydrolase 10),-1.36 (active)
SLC43A3,-1.06 (active)
TMEM68 (transmembrane protein 68),1.31 (active)
ARMC7 (armadillo repeat containing 7),-4.66 (active)
MTIF3 (mitochondrial translational initiation factor 3),1.67 (active)
GGCT (gamma-glutamylcyclotransferase),-3.16 (active)
